Results on one substance are retold here after PMC7227451.

This assay concerns the target recombinant hACE2 (human) (UniProt Q9BYF1). The assay can be described thus: BLI. The note with it: Fc fusion.

What is called koff is the first-order rate constant of dissociation. As to “SARS-CoV RBD-hFc (from UniProt P59594 306-527)”, the koff was 0.00115 s⁻¹.
